A mixed list of measured activities; the numbers were collected in NIAID ChemDB.

All rows: tests in culture; species: HIV-1; method: cytopathic effect / MTT; measure: EC50

Blank or dashed fields: not listed here. ECn: concentration that inhibits the pathogen or its effect by n%. Lines come from different laboratories, so protocols vary.

structure	cells	changes	setting	strain	result
Nc1ccn([C@H]2CC[C@@H](CO)O2)c(=O)n1	MT-2	-	-	G910-6 AZT-resistant	~0.2 µM
CC(C)c1c(Sc2cccc3ccccc23)n(COCC2CCCCC2)c(=O)[nH]c1=O	MT-4	-	-	IIIB	12.53 µM
COC(=O)[C@@H](NC(=O)Cc1ccccc1)[C@@H]1N[C@@H](C(=O)NC[C@@H](O)CN2C[C@H]3CCCC[C@H]3C[C@H]2C(=O)NC(C)(C)C)C(C)(C)S1	MT-4	-	-	RF	3.9 µM
COCOc1ccc(/C=C/C(=O)c2c(OCOC)cc(OCOC)c(CC=C(C)C)c2O)cc1OCOC	MT-4	-	-	IIIB	>100 µg/mL
CCCc1cc(=O)oc2c3c(c4c(c12)OC(C)(C)C=C4)OC(C)(C)[C@H](C)C3=O	CEM + CEM-SS	-	-	IIIB	>21 µM
Cc1ccnc2c1NC(=O)c1cccnc1N2C1CC1	MT-4	RT-G190A	-	RT-190A	7.94 µM
CC(C)c1c(Sc2ccc3ccccc3c2)n(COCc2ccccc2)c(=O)[nH]c1=O	MT-4	-	-	IIIB	0.83 µM
c1cnc2c(c1)cc(CN1CCCNCCNCCCNCC1)c1cccnc12	MT-4	-	6 d	IIIB	1.59 µM
C[C@H](C[n+]1c[nH]c2c(NCCCC3CCCCC3)nc(N)nc21)OCP(=O)(O)O	MT-4	-	-	IIIB	4.15 ± 3 µg/mL
Cc1cc(C)c(Nc2nc(Nc3ccc(C#N)cc3)ncc2Cl)c(C)c1	MT-4	-	-	LAI WT	0.003 µM
C1CNCCNCC(CCOCCOCCC2CNCCNCCCNCCNC2)CNCCNC1	MT-4	-	5 d	RF	2.3 µM
N#Cc1ccc(Nc2nc(Cc3c(Cl)cccc3Cl)nc(NO)n2)cc1	MT-4	RT-L100I K103N	-	NNRTI-resistant (RT L100I K103N)	5 µM
C=CC(C)(C)c1c(O)cc(O)c2c(=O)c(O)c(-c3cc(O)c(O)c(CC=C(C)C)c3CC=C(C)C)oc12	MT-4	-	-	IIIB	>40 µg/mL
CCOCn1c(Sc2cc(C)cc(C)c2)c(CC)c(=O)[nH]c1=S	MOLT-4	-	-	IIIB	0.0031 µM
O=C1c2cccn2-c2ccc(Cl)cc2S(=O)(=O)N1C1CCC1	MT-4	-	-	IIIB	7.4 µM
COc1ccc(Oc2coc3cc(OC)c(CC=C(C)C)c(O)c3c2=O)c(OC)c1	MT-4	-	-	IIIB	>100 µg/mL
CCN1C(=O)c2cccn2-c2ccccc2S1(=O)=O	MT-4	-	-	IIIB	200 µM
O=c1c(Oc2ccccc2)coc2cc(O)cc(O)c12	MT-4	-	-	IIIB	>100 µg/mL
NOCc1ccccc1	MT-4	-	-	IIIB	>82.3 µg/mL
C1CNCCNCC(CCOCCOCCC2CNCCNCCCNCCNC2)CNCCNC1	MT-4	-	5 d	IIIB	7.47 µM
C1CNCCNCCNCCNCCN1	MT-4	-	-	IIIB	>8.3 µM
CCCN(C)C(=O)Oc1nsnc1-c1c(Cl)ccc(C(=O)OCC)c1Cl	MT-4	-	-	IIIB	0.15 µM
C1CNCCNCCCNCCNC1	MT-4	-	-	IIIB	>500 µg/mL
CC(C)=CCN1C(C)CNc2ccc(Cl)cc2S1(=O)=O	MT-4	-	-	IIIB	>4.8 µM
CC(C)(C)NC(=O)[C@@H]1C[C@@H]2CCCC[C@@H]2CN1CC(O)CNC(=O)[C@@H]1N[C@@H]([C@H](NC(=O)Cc2ccccc2)C(=O)NCCNC(=O)CCCC[C@@H]2SC[C@@H]3NC(=O)N[C@@H]32)SC1(C)C	MT-4	-	-	RF	18 µM
CCOCn1c(Cc2cc(C)cc(C)c2)c(CC)c(=O)[nH]c1=O	MT-4	-	-	A012D	0.0012 µM
CCCc1c(Sc2cccc3ccccc23)n(COCC)c(=O)[nH]c1=O	MT-4	-	-	IIIB	1.86 µM
C[C@H](C[n+]1c[nH]c2c(Nc3ccoc3)nc(N)nc21)OCP(=O)(O)O	CEM	-	-	IIIB	7 ± 4.2 µg/mL
CCCN(C)C(=O)Oc1nsnc1-c1c(Cl)ccc(N)c1Cl	MT-4	-	-	HE	0.051 µM
Cc1cn([C@H]2C[C@H](N=[N+]=[N-])[C@@H](CO)O2)c(=O)[nH]c1=O	MT-4	-	-	MN	0.0033 µg/mL
O=S(=O)(O)c1cc(O)c2c(NS(=O)(=O)c3ccc(-c4ccc(S(=O)(=O)Nc5cc(S(=O)(=O)O)cc6cc(S(=O)(=O)O)cc(O)c56)cc4)cc3)cc(S(=O)(=O)O)cc2c1	MT-4	-	-	IIIB	8.3 µM
C1CNCCNCCCNCCNC1	MT-4	-	4 d	IIIB	420 µM
CCOCn1c(Sc2cc(C)cc(C)c2)c(CC)c(=O)[nH]c1=O	MT-4	-	-	HE	0.016 µM
c1cc(CN2CCCNCCNCCCNCC2)ccc1CN1CCCNCCNCCCNCC1	MT-4	-	-	RF	0.001 µg/mL
CC(C)=CCc1c(O)cc(O)c2c(=O)c(OC3O[C@@H](C)[C@H](O)[C@@H](O)[C@H]3O[C@@H]3O[C@H](CO)[C@@H](O)[C@H](O)[C@H]3O)c(-c3ccc(O)cc3)oc12	MT-4	-	-	IIIB	>500 µg/mL
c1cc(CN2CCCNCCNCCCNCC2)nc(CN2CCCNCCNCCCNCC2)c1	MT-4	-	-	IIIB	0.03 µg/mL
CCCN(C)C(=O)Oc1nsnc1-c1c(Cl)ccc(C#N)c1Cl	MT-4	-	-	IIIB	0.0073 µM
CCC(C)Nc1nc(N)nc2c1ncn2CCOCP(=O)(O)O	MT-4	-	-	IIIB	1.97 µg/mL
NOCc1cc(Cl)ccc1Cl	MT-4	-	-	IIIB	7.96 µg/mL
C(CCC1CNCCNCCCNCCNC1)CCC1CNCCNCCCNCCNC1	MT-4	-	5 d	SF2	27 µM
CCOCn1c(Cc2ccccc2)c(C(C)C)c(=O)[nH]c1=O	MT-4	RT-K103N	-	-	0.8 µM
CC(=O)c1ccc(C)cc1NC(C(N)=O)c1c(Cl)cccc1Cl	MOLT-4	-	-	IIIB	0.028 µM
C=CC(C)(C)c1cc(/C=C/C(=O)c2ccc(O)cc2)c(OC)cc1O	MT-4	-	-	IIIB	>20 µg/mL
COCn1c(Sc2ccc3ccccc3c2)c(C(C)C)c(=O)[nH]c1=O	MT-4	-	-	IIIB	4.69 µM
O=C1c2cccn2-c2ccc(Cl)cc2S(=O)(=O)N1C1CC1	MT-4	-	-	IIIB	15 µM
CC(C)=CCc1c(O)cc2oc(-c3ccc(O)cc3)c(O)c(=O)c2c1O	MT-4	-	-	IIIB	>20 µg/mL
CCCc1cc(=O)oc2c3c(c4c(c12)OC(C)(C)C=C4)O[C@H](CC)[C@@H](C)C3=O	CEM + CEM-SS	-	-	IIIB	>6.8 µM
Cc1cn([C@H]2C[C@H](N=[N+]=[N-])[C@@H](CO)O2)c(=O)[nH]c1=O	MT-4	-	-	IIIB	0.0011 µM
O=P(O)(O)COCCn1cnc2c(NC3CCCCC3)ncnc21	CEM	-	-	IIIB	>100 µg/mL
O=C(CCCCCCCCCCC(=O)Nc1cc(S(=O)(=O)O)cc2cc(S(=O)(=O)O)cc(O)c12)Nc1cc(S(=O)(=O)O)cc2cc(S(=O)(=O)O)cc(O)c12	MT-4	-	-	IIIB	44 µM
C1CNCCNCC(C2CNCCNCCCNCCNC2)CNCCNC1	MT-4	-	-	IIIB	0.33 µg/mL
CC(C)(C)NC(=O)[C@@H]1C[C@@H]2CCCC[C@@H]2CN1CC(O)CNC(=O)[C@@H]1N[C@@H]([C@H](NC(=O)Cc2ccccc2)C(=O)NCCNC(=O)OC(C)(C)C)SC1(C)C	MT-4	-	-	RF	0.052 µM
CCOC(=O)c1oc2cc(O)cc(O)c2c(=O)c1Oc1ccccc1	MT-4	-	-	IIIB	>100 µg/mL
Nc1nc(NC2CCCC2)c2ncn(CCOCP(=O)(O)O)c2n1	MT-4	-	-	IIIB	>0.8 µg/mL
C1CNCCNCC(CCC2CNCCNCCCNCCNC2)CNCCNC1	MT-4	-	5 d	IIIB	0.18 µM
COc1c(-c2ccc(O)cc2)oc2cc(O)c(CC=C(C)C)c(O)c2c1=O	MT-4	-	-	IIIB	>8 µg/mL
C1CNCCNCC(CCCC2CNCCNCCCNCCNC2)CNCCNC1	MT-4	-	4 d	IIIB	0.08 µM
CCN1C(=O)Nc2ccc(Cl)cc2S1(=O)=O	MT-4	-	-	IIIB	13 µM
CCc1c(Sc2ccc3ccccc3c2)n(COCc2ccccc2)c(=O)[nH]c1=O	MT-4	-	-	IIIB	0.65 µM
NOCc1ccc(Cl)cc1Cl	MT-4	-	-	IIIB	11.5 µg/mL

Repeating the first 4 entries:

structure	cells	changes	setting	strain	result
Nc1ccn([C@H]2CC[C@@H](CO)O2)c(=O)n1	MT-2	-	-	G910-6 AZT-resistant	~0.2 µM
CC(C)c1c(Sc2cccc3ccccc23)n(COCC2CCCCC2)c(=O)[nH]c1=O	MT-4	-	-	IIIB	12.53 µM
COC(=O)[C@@H](NC(=O)Cc1ccccc1)[C@@H]1N[C@@H](C(=O)NC[C@@H](O)CN2C[C@H]3CCCC[C@H]3C[C@H]2C(=O)NC(C)(C)C)C(C)(C)S1	MT-4	-	-	RF	3.9 µM
COCOc1ccc(/C=C/C(=O)c2c(OCOC)cc(OCOC)c(CC=C(C)C)c2O)cc1OCOC	MT-4	-	-	IIIB	>100 µg/mL